{
  "source": "patent US20120265121A1",
  "about": "“PHTHALOCYANINE-BASED ANTIFUNGAL AGENTS” (CASE WESTERN RESERVE UNIVERSITY, priority 2011, published 2012)",
  "tested_on": "C. albicans (strain SC-5134)",
  "test": "Confocal microscopy of Pc 4 uptake and localization",
  "type": "cell-based, Candida albicans",
  "settings": "C. albicans loaded with Pc 4, confocal fluorescence",
  "note": "Entries after “also recorded” stand apart in the source; their conditions may differ.",
  "data": [
    {"compound": "CN(C)CCC[Si](C)(C)O[Si]1(O)n2c3c4ccccc4c2N=C2N=C(N=c4c5ccccc5c(n41)=NC1=NC(=N3)c3ccccc31)c1ccccc12", "note": "(stereo not shown) [Pc 4, HOSiPcOSi(CH3)2(CH2)3N(CH3)2]", "values": [
      {"measurement": "uptake and subcellular localization", "value": "able to penetrate the cell membrane of C. albicans and can be seen within the cytosol; also recorded: detected in the cytoplasmic compartment but not in the cell wall, plasma membrane or nucleus"}
    ]}
  ]
}
